Source: patent US5559025A (priority 1991, dated 1996)

Sequences of proteins named here, by UniProt entry; tags and fusion partners are left off. Residues count along the entry.
UniProt P04936, 851-992 limits assumed: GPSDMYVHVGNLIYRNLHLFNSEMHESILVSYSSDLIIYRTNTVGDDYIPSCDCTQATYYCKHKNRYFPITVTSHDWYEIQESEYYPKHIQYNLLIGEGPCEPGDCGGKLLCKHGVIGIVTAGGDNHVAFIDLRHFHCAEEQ

Biological target: HRV2 2A proteinase (Human rhinovirus 2, UniProt P04936)
Assay: Trans-cleavage assay: effect of known proteinase inhibitors and reducing agents on cleaving of peptide P89
Assay type: biochemical
Settings: inhibitor added before start of reaction; repeated three times

O=S(=O)(F)Cc1ccccc1
effect on the activity of 2A relative to peptide P89: only effective at higher concentrations
